“And” between values parts separate entries of the source, which are not always exact repeats. Identical values can stand only once. Like-named read-outs stand apart in the source and are kept apart here.
Test system: PBMCs
Assay type: cell-based, human
Experimental: Next, we evaluated the ability of the candidate LPAs to sustain the inhibitory effects during a prolonged ex vivo culture. To this end, PBMCs were cultured in the presence of individual drugs in DMSO or in DMSO alone as control, activated (anti-CD3/CD28), and harvested after 6 days. […] Ruxolitinib and triptolide caused sustained reductions in initiated HIV transcripts (medians relative to activated DMSO: 27%, P = NS and 1%, P = 0.03, respectively; Figure 4A and Table 3). […] However, we decided to test the drug on day 6 because extra cells were available from some study participants.
For quantification of cell-associated HIV transcripts, PBMCs were harvested either after 24 hours or after 6 days. The cell viabilities were measured by trypan blue staining; then the cells were pelleted by centrifuging at 300g for 6 minutes and stored at –80°C. For quantification of virion-associated HIV RNA, cell culture supernatant was collected from 6 × 10^6 PBMCs that were treated and activated for 6 days as described above. Residual cells and cellular debris were subsequently removed from the supernatant by differential centrifugation (300g for 6 minutes, then 20,000g for 10 minutes), and the supernatant was stored at –80°C.
Figure S4. […] A) After six days, the viability was measured by trypan blue staining and then normalized to the levels of the activated DMSO (% of activated DMSO). […]

Compound | Cell viability (DMSO αCD3/28 = 100) (5μM, 6 days after αCD3/28 activation, each row one participant) | Cell viability (DMSO αCD3/28 = 100) (human, 6 days, 4 μM)
O=c1c(O)c(-c2ccc(O)c(O)c2)oc2cc(O)cc(O)c12 [quercetin] | 105.41 and 105.3 and 104.6 | –
N#CC[C@H](C1CCCC1)n1cc(-c2ncnc3[nH]ccc23)cn1 [ruxolitinib] | – | 104.7
